This note sets out measurements from PMC12153317 (mBio, 2025).

The assay addresses H3 A/Aichi/02/1968(X31) monomeric HA head, His6-tagged (Influenza A virus …, UniProt P03437, strain). Nature of the assay: BLI.

B1: S8V1-157 Fab (BLI and size exclusion chromatography) (Fab, V domains shown)
VH: EVQLVQSGAEVKKPGASVKVSCKVSGYRLTALSMHWVRQAPGKGLEWMGGFDPEEDETIYAQNFQGRVTLTEDTSTDTVYMELSSLRSEDTGVYYCATLMGANPFDYWGQGTLIIVSG
VL: not shown
notes: source: 293F, transient transfection, purified (TALON resin, Superdex 200)
B1: the binding result was “binds”.

B2: S5V2-29 Fab (Fab, V domains shown)
VH: QVQLQESGPGLVKPSETLSLTCTVSGGSVSSNIYYWSWIRQTPGKGLEWLGYFYHSGSSNYNPSLKSRVTISGDMSKNQFSLKLKSVTAADTAIYYCARGGVENLMLVAVIQEMWYFDLWGRGTLVTVSG
VL: DIQMTQTPSSLSASVGDRVTITCRASQSIGASLNWYQQKPGEAPKFLIYAASNLQSGVPSRFSGSGSGTDFTLTISSLQPEDFATYYCQQQGTFGQGTKLEIK
notes: as for B1
With B2, the binding result was “binds”.
